# Positions that govern dimerization of the HIV-1 5' RNA

Source: Ye et al. 2022 (doi:10.1038/s41594-022-00746-2), supplementary data.

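Mutant RNA libraries with 1G, 2G or 3G starts, with or without cap, were folded at 37 °C for 30 min. Monomer and dimer bands were cut from native gels after folding in high salt (300 mM KCl, 5 mM MgCl2) or low salt (40 mM KCl, 0.1 mM MgCl2). Kdimer compares mutation frequencies in monomer and dimer, corrected for sequencing errors.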

RNA: 5' end of the HIV-1 NL4-3 genome, made in vitro. Positions 1-437 read:
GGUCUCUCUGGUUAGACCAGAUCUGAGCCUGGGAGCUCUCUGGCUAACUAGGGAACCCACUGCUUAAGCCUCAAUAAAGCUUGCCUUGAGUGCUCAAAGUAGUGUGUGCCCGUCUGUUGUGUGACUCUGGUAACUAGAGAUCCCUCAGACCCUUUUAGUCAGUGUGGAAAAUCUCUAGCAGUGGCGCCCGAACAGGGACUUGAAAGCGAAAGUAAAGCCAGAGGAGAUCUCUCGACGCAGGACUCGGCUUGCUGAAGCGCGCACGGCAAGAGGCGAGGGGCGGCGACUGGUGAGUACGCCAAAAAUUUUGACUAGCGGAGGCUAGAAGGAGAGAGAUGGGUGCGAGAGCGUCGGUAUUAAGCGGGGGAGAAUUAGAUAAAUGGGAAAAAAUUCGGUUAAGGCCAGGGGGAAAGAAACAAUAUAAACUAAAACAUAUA

Scale: median log2 Kdimer over the changes at a position; positive = changes inhibit dimerization, negative = changes enhance it. Sample: 3G capped high-salt. One numbering serves 1G, 2G and 3G. A position is written with its base where known. Bases beyond 437 are not listed in the source.

| # | position | domain | 3G capped high-salt |
|---|---|---|---|
| 1 | G43 | TAR | -0.04 |
| 2 | G280 | none | -0.61 |
| 3 | G294 | SL2 | -0.58 |
| 4 | 483 | none | 0.03 |
| 5 | C252 | SL1 | 2.97 |
| 6 | U295 | SL2 | -0.19 |
| 7 | G333 | AUG | -0.02 |
| 8 | A327 | none | 0.08 |
| 9 | C111 | U5 | -0.29 |
| 10 | C179 | PBS | -0.37 |
| 11 | U103 | PolyA | -0.29 |
| 12 | U82 | PolyA | -0.07 |
| 13 | G369 | none | 0.32 |
| 14 | G259 | SL1 | 4.74 |
| 15 | U323 | SL3 | 0.26 |
| 16 | U165 | PBS | 0.08 |
| 17 | G289 | SL2 | 0.58 |
| 18 | A133 | PBS | -0.05 |
| 19 | A101 | PolyA | 0.57 |
| 20 | G33 | TAR | 0.05 |
| 21 | 513 | none | 0.03 |
| 22 | 465 | none | -0.16 |
| 23 | U118 | none | 0.04 |
| 24 | A276 | SL1 | 3.15 |
| 25 | A293 | SL2 | -0.21 |
| 26 | A177 | PBS | -0.08 |
| 27 | A359 | none | 0.05 |
| 28 | 508 | none | 0.11 |
| 29 | 464 | none | -0.11 |
| 30 | C58 | PolyA | 0.08 |
| 31 | 487 | none | 0.08 |
| 32 | G331 | none | -0.22 |
| 33 | A431 | none | 0.11 |
| 34 | A324 | SL3 | 0.48 |
| 35 | U155 | PBS | -0.06 |
| 36 | A89 | PolyA | 0.01 |
| 37 | A239 | none | -0.50 |
| 38 | 479 | none | -0.10 |
| 39 | C219 | antiPAS | 0.58 |
| 40 | U107 | U5 | 0.32 |
| 41 | A211 | PBS | -0.55 |
| 42 | C93 | PolyA | -0.05 |
| 43 | 445 | none | 0.21 |
| 44 | C72 | PolyA | -0.18 |
| 45 | G406 | none | 0.00 |
| 46 | A304 | none | -0.12 |
| 47 | C300 | none | -0.41 |
| 48 | U249 | SL1 | 1.16 |
| 49 | U392 | none | 0.06 |
| 50 | 486 | none | 0.00 |
| 51 | G318 | SL3 | 0.10 |
| 52 | U337 | AUG | 0.11 |
| 53 | 452 | none | -0.05 |
| 54 | U341 | AUG | 0.17 |
| 55 | C236 | none | 2.65 |
| 56 | 490 | none | -0.04 |
| 57 | A169 | PBS | 0.05 |
| 58 | U250 | SL1 | 2.62 |
| 59 | A255 | SL1 | -0.22 |
| 60 | U436 | none | 0.00 |
| 61 | A140 | PBS | -0.22 |
| 62 | A296 | SL2 | 0.71 |
| 63 | U87 | PolyA | -0.13 |
| 64 | A433 | none | -0.02 |
| 65 | U94 | PolyA | -0.16 |
| 66 | 494 | none | 0.08 |
| 67 | U64 | PolyA | 0.09 |
| 68 | U172 | PBS | -0.03 |
| 69 | A414 | none | -0.02 |
| 70 | U45 | TAR | -0.09 |
| 71 | U156 | PBS | -0.09 |
| 72 | 463 | none | -0.10 |
| 73 | G112 | U5 | 0.09 |
| 74 | G221 | antiPAS | -0.16 |
| 75 | G202 | PBS | -0.21 |
| 76 | 444 | none | 0.23 |
| 77 | A437 | none | 0.16 |
| 78 | G51 | TAR | 0.05 |
| 79 | C70 | PolyA | -0.03 |
| 80 | U39 | TAR | -0.07 |
| 81 | A149 | PBS | 0.88 |
| 82 | U91 | PolyA | -0.21 |
| 83 | G321 | SL3 | 0.37 |
| 84 | C95 | PolyA | -0.07 |
| 85 | A50 | TAR | 0.00 |
| 86 | A398 | none | 0.00 |
| 87 | C274 | SL1 | 0.08 |
| 88 | G104 | PolyA | -0.22 |
| 89 | G342 | AUG | 0.17 |
| 90 | U420 | none | 0.02 |
| 91 | G27 | TAR | -0.90 |
| 92 | G407 | none | 0.03 |
| 93 | U397 | none | 0.04 |
| 94 | G401 | none | -0.09 |
| 95 | C417 | none | -0.10 |
| 96 | A26 | TAR | -0.13 |
| 97 | A203 | PBS | 0.51 |
| 98 | G283 | SL2 | -0.22 |
| 99 | A379 | none | -0.10 |
| 100 | A205 | PBS | 0.21 |
| 101 | G158 | PBS | -0.44 |
| 102 | U41 | TAR | -0.09 |
| 103 | A301 | none | 0.53 |
| 104 | G335 | AUG | 0.06 |
| 105 | G32 | TAR | -0.08 |
| 106 | C243 | SL1 | 0.65 |
| 107 | C229 | CU | 0.37 |
| 108 | C403 | none | 0.00 |
| 109 | 472 | none | 0.05 |
| 110 | 512 | none | -0.07 |
| 111 | U176 | PBS | -0.12 |
| 112 | A410 | none | 0.05 |
| 113 | A21 | TAR | 0.06 |
| 114 | C248 | SL1 | 0.57 |
| 115 | G137 | PBS | -0.05 |

The first 10 entries again:

| position | domain | 3G capped high-salt |
|---|---|---|
| G43 | TAR | -0.04 |
| G280 | none | -0.61 |
| G294 | SL2 | -0.58 |
| 483 | none | 0.03 |
| C252 | SL1 | 2.97 |
| U295 | SL2 | -0.19 |
| G333 | AUG | -0.02 |
| A327 | none | 0.08 |
| C111 | U5 | -0.29 |
| C179 | PBS | -0.37 |